For orientation: Ki means a measure of affinity in units of concentration, obtained from inhibition or displacement. What is called EC50 is the midpoint of the concentration-response curve. A lower EC50 goes with greater potency.

Protein sequences, listed by entry. Tags and fused reporters are not part of them. Lines headed by an entry give the natural chain unless they say otherwise; changes in a name come on top.
UniProt Q9H3N8: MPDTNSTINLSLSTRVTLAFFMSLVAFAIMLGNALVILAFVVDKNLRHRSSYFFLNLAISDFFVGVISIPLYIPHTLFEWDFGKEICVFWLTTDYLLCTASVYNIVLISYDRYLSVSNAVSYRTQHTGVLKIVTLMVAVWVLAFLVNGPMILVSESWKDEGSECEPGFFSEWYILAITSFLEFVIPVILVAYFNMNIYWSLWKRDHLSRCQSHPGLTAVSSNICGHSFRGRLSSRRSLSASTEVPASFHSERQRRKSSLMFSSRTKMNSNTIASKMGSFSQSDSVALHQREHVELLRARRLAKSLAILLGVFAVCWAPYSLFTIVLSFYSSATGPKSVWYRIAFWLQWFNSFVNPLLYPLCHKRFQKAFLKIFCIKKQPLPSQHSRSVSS

For assay [1], the target named is T1, Histamine H4 receptor (Homo sapiens, UniProt Q9H3N8). Briefly: Displacement of [3H]histamine from human recombinant histamine H4 receptor expressed in SK-N-MC cells after 45 mins by competition binding analysis. It is filed as cell-based. On the technique in general: Displacement assays read how much labelled ligand stays bound in the presence of the test substance.

Assay [2] addresses T1, Histamine H4 receptor. Briefly: Agonist activity at human H4 receptor.
In assay [3] the target is T1, Histamine H4 receptor. Briefly: Antagonist activity at human histamine H4 receptor expressed in SK-N-MC cells assessed as reduction of histamine-induced inhibition of cAMP-mediated beta-galactosidase reporter gene activity treated 10 mins prior to histamine challenge by microplate reader analysis. In kind it is functional, cell-based. As to conditions: read-out: pA2 (converted). (In a reporter assay the amount or activity of a reporter protein is the signal.)

With `CN[C@@H]1CCN(c2cc(C(C)(C)C)nc(N)n2)C1`, the inhibitory constant (Ki) on Histamine H4 receptor [1] came to 8 nM. In addition, the EC50 at Histamine H4 receptor [2] was greater than 10000 nM. The Kb at Histamine H4 receptor [3] is 2.51 nM.

Values taken from ChEMBL document CHEMBL3232922, “Discovery and SAR of 6-alkyl-2,4-diaminopyrimidines as histamine H₄ receptor antagonists” (J Med Chem, 2014).
